Measured values from several laboratories, pooled; numbers as filed in NIAID ChemDB.

Common to all: growth or infection tests; agent: Candida albicans

Blank or dashed fields: not listed here. Neighbouring rows are from separate reports. a–b is a range or a potency band. ECn is the concentration giving n% inhibition of infection, replication or growth. A number after MIC or MFC names an inhibition level or a share of isolates.

SMILES	strain or isolate	read by	measure	result
C/C=C/C(C)=C/C(C)C(=O)CC1CC(CC(N)=O)CC(=O)O1	IFO 1060	-	MIC	>100 µg/mL
COC(=O)Cn1[se]c2ccccc2c1=O	-	agar	MIC	135 µg/mL
O=[N+]([O-])c1cccc2c1CCc1[se]nnc1-2	-	-	MIC	12.5 µg/mL
COc1ccc2c(c1)CC(NCc1ccccc1)CC2	-	-	MIC	30 µM
N#[N+]c1nc(-c2ccc(Cl)cc2Cl)[nH]c1C(=O)N1CCCC1	ATCC 10231	-	MIC	100 µg/mL
CO[C@H]1OC(=O)C[C@@]2(O)[C@@]13O[C@@H]3C1OC(=O)[C@@]3(C)CCC[C@@]2(C)[C@@H]13	1463D	-	MIC	>64 µg/mL
C/C(=C/c1cn(C)c2ccccc12)[N+](=O)[O-]	-	-	MIC	400 µg/mL
COc1ccc(Oc2nc3ccc(OC)cc3cc2C2C(C#N)=C(N)OC3=C2C(=O)CCC3)cc1	MTCC 227	-	MIC	250 µg/mL
Nc1[nH]c(=O)ncc1F	ATCC 24433	-	MIC	2 µg/mL
Oc1ccc2c(c1)CC(Nc1ccccc1)CC2	-	-	MIC	64 µM
C=C1CO[C@H]2[C@@H](C)OC(OC[C@@]34C[C@H]5[C@H](C)CC[C@@H]5[C@@]5(C=O)C[C@@H]3C=C(C(C)C)[C@@]45C(=O)O)C[C@@H]12	4711E	-	MIC	0.001 µg/mL
COc1cc(O)c2c(c1)C(=O)c1c(cc3c(c1O)-c1c(cc(C)c(C(=O)NC(C)C(=O)O)c1O)[C@H](O)[C@H]3OC1OC(C)C(O)C(O)C1O)C2=O	A9540	-	MIC	>100 µg/mL
O=[N+]([O-])c1cnc(/C=N/O)s1	E-3	-	MIC	125 µg/mL
Cc1c(/C=C/[N+](=O)[O-])c2ccccc2n1C	-	-	MIC	400 µg/mL
CCn1c(=O)c(C(=O)O)c(O)c2cc3c(cc21)OCO3	ATCC 10231	-	MIC	>100 µg/mL
COc1cc(O)c2c(c1)C(=O)c1c(cc3c(c1O)-c1c(cc(C)c(C(=O)NC(C)C(=O)O)c1O)[C@H](OC1OC(C)C(F)CC1OC1OCC(O)C(O)C1O)[C@H]3O)C2=O	A9540	-	MIC	>100 µg/mL
CCOC(=O)c1cn(CC)c2c(C)cccc2c1=O	ATCC 10231	-	MIC	>100 µg/mL
CCn1cc(C(=O)Nn2c(C)nc3ccc(I)cc3c2=O)c(=O)c2ccc(C)nc21	-	-	MIC	20–40 µg/mL
C[C@@]12CCC[C@]3(C)C4=CC(=O)OC(O)[C@]45O[C@@H]5C(OC1=O)[C@@H]23	1463D	-	MIC	>64 µg/mL
CCOC(=O)Cn1nnc(Cn2cc(C(C)=O)c3ccccc32)n1	-	agar	MIC99	210 µg/mL
O=C(Nc1ccccc1)n1[se]c2ccccc2c1=O	-	agar	MIC	79 µg/mL
Cc1nc([N+]#N)c(C(=O)N2CCCC2)[nH]1	ATCC 10231	-	MIC	200 µg/mL
C[C@@H]1[C@H](O)[C@@H](C)/C=C/C=C/CC/C=C/C=C/C=C/C=C/C(O[C@H]2O[C@H](C)[C@@H](O)[C@H](N)[C@@H]2O)CC2O[C@](O)(CC(O)C(O)CCC(O)CC(O)CC(O)CC(=O)O[C@H]1C)CC(O)C2C(=O)O	ATCC 10231	absorbance	MIC	0.488 µg/mL
CCCCCCCCCCNC1CCc2cc(O)ccc2C1	-	-	MIC	0.03125 µM
COc1cc(O)c2c(c1)C(=O)c1c(cc3c(c1O)-c1c(cc(C)c(C(=O)NC(C)C(=O)O)c1O)[C@H](OC1OC(C)C4C(O[C@H](OCCO)CN4C)C1O)[C@H]3O)C2=O	A9540	-	MIC	6.3 µg/mL
C[C@@H]1[C@H](O)[C@@H](C)/C=C/C=C/CC/C=C/C=C/C=C/C=C/[C@H](O[C@@H]2O[C@H](C)[C@@H](O)[C@H](N)[C@@H]2O)C[C@@H]2O[C@](O)(C[C@@H](O)[C@H](O)CC[C@@H](O)C[C@@H](O)C[C@@H](O)CC(=O)O[C@H]1C)C[C@H](O)[C@H]2C(=O)O	MTCC 227	-	MIC	500 µg/mL
C=C(C)[C@@H]1CC[C@]2(COC(=O)c3ccccc3NC(C)=O)CC[C@]3(C)C(CCC4[C@@]5(C)CC[C@H](O)C(C)(C)C5CC[C@]43C)C12	ATCC 90028	broth dilution	MIC90	10 µg/mL
CN(C/C=C/C#CC(C)(C)C)Cc1cccc2ccccc12	ATCC 90028	-	MIC	1 µg/mL
CN[C@H]1[C@@H](O[C@@H]2O[C@H](CO)[C@@H](O)[C@H](O)[C@H]2O)[C@H](O)[C@@H](O[C@H]2c3cc(C)c(C(=O)N[C@H](C)C(=O)OC)c(O)c3-c3c(cc4c(c3O)C(=O)c3cc(OC)cc(O)c3C4=O)[C@@H]2O)O[C@H]1C	A9540	-	MIC	25 µg/mL
CC(=O)OC1C=COC=C2CC34SSC5(CC6=COC=CC(OC(C)=O)C6N5C3=O)C(=O)N4C21	E83	-	EC50	10 µg/mL
COc1ccc(Cc2c3cc(OC)c(OC)cc3cc[n+]2C)cc1OC	IFO1061	-	MIC	>500 µg/mL
CN[C@@H]1[C@H](O)[C@@H](O)[C@H](O[C@H]2c3cc(C)c(C(=O)N[C@H](C)C(=O)O)c(O)c3-c3c(cc4c(c3O)C(=O)c3cc(OC)cc(O)c3C4=O)[C@@H]2O)O[C@@H]1C	A9540	-	MIC	3.1 µg/mL
COc1cc(Cc2cnc(N)nc2N)cc(OC)c1OCCCNc1ccc(S(=O)(=O)c2ccc(N)cc2)cc1	YEM13 (BENUP)	-	MIC	>64 µg/mL
O=[N+]([O-])c1ccc2c(c1)CCc1[se]nnc1-2	-	-	MIC	12.5 µg/mL
C[N+](C)(C)CCn1[se]c2ccccc2c1=O	-	agar	MIC	>512 µg/mL
O=[N+]([O-])c1ccc2c(c1)CCc1snnc1-2	-	-	MIC	12.5 µg/mL
CCCCCCCCCCCCNC1CCc2ccc(OC)cc2C1	-	-	MIC	4 µM
CC(C)=CCC/C(C)=C/CCC(C)=CCCC[n+]1ccc(N(C)C)cc1.O=C([O-])C(F)(F)F	CCH442	-	MIC	3.3 µM
N#[N+]c1nc(-c2cccc(Cl)c2)[nH]c1C(=O)N1CCCC1	ATCC 10231	-	MIC	200 µg/mL
CC(=O)N1CCN(c2ccc(OC[C@H]3CO[C@](Cn4ccnc4)(c4ccc(Cl)cc4Cl)O3)cc2)CC1	ATCC 90028	-	MIC	0.25 µg/mL
CC(C/C=C/C=C/CC/C=C\C=C\CCC(C)(C)C)C(O)C(O)C(O)C(O)C(O)C1OC(=O)C(O)C1O	ATCC 32354 (B311)	-	MIC	25 µg/mL
CC1c2cc(OCc3ccccc3)c(OCc3ccccc3)cc2CCN1Cc1ccccc1	IFO1061	-	MIC	>500 µg/mL
CCCCCCCCCCNC1CCc2cccc(OC)c2C1	-	-	MIC	0.0625 µM
Cc1ccc(S(=O)(=O)[O-])cc1.c1cc[nH+]cc1	CCH442	-	EC50	>200 µM
COc1ccc(C=O)cc1	10261	agar diffusion / agar	MIC90	350–500 µg/mL
COc1ccc2nc(Oc3ccc(F)cc3)c(C3C(C#N)=C(N)OC4=C3C(=O)CCC4)cc2c1	MTCC 227	-	MIC	500 µg/mL
COc1ccc(Cc2c3ccc(OC)c(OC)c3cc[n+]2C)cc1OC	IFO1061	-	MIC	>500 µg/mL
O=c1c2ccccc2[se]n1C1CCCCC1	-	broth dilution	MIC	2 µg/mL
CN(C/C=C/C#CC(C)(C)C)Cc1cccc2ccccc12	SC5314	-	MIC	>10.5 µg/mL
O=C1N2C3C(=COC=CC3O)CC23SSC12CC1=COC=CC(O)C1N2C3=O	E83	-	MIC	2.5 µg/mL
CCCCCCCCCCCCCCCCCC[n+]1ccccc1.[Cl-]	CCH442	-	MIC	4.2 µM
CNC1C(C)OC(O[C@H]2c3cc(C)c(C(=O)NC(C)C(=O)O)c(O)c3-c3c(cc4c(c3O)C(=O)c3cc(OC)cc(O)c3C4=O)[C@@H]2O)C(O)C1OC1OCC(O)C(O)C1OC1OCC(O)C(O)C1O	A9540	-	MIC	25 µg/mL
CCCCCCCCCCNC1CCc2ccc(O)cc2C1	-	-	MIC	0.0625 µM
CCn1cc(C(=O)Nn2c(C)nc3ccccc3c2=O)c(=O)c2ccc(C)nc21	-	-	MIC	>300 µg/mL
CN(C/C=C/C#CC(C)(C)C)Cc1cccc2ccccc12	CI-2	-	MIC90	4 µg/mL
N#[N+]c1nc(-c2ccc(Cl)cc2)[nH]c1C(=O)N1CCCC1	ATCC 10231	-	MIC	25 µg/mL
CC(C)CCCC(C)CCCC(C)CCCC[n+]1ccccc1.Cc1ccc(S(=O)(=O)[O-])cc1	CCH442	-	EC50	0.6 µM
CC(=O)OCCOCCn1nnc(Cn2cc(C(C)=O)c3ccccc32)n1	-	agar	MIC99	150 µg/mL
CCCCCc1nccc2cc(OCCC)c(OCCC)cc12	IFO1061	-	MIC	>500 µg/mL
OC(Cn1cncn1)(Cn1cncn1)c1ccc(F)cc1F	YL 342	broth dilution	MIC	512 µg/mL
O=C(NC1CCCCC1)n1[se]c2ccccc2c1=O	-	agar	MIC	10 µg/mL
O=[N+]([O-])c1ccc(/C=C/c2ncc([N+](=O)[O-])s2)o1	E-3	-	MIC	4 µg/mL
COc1ccc(Oc2nc3ccc(C)cc3cc2C2C(C#N)=C(N)OC3=C2C(=O)CC(C)(C)C3)cc1	MTCC 227	-	MIC	1000 µg/mL
C/C(=C\c1c[nH]c2ccccc12)[N+](=O)[O-]	-	-	MFC	50 µg/mL
C=C(C)[C@@H]1CC[C@]2(C(=O)O)CC[C@]3(C)C(CCC4[C@@]5(C)CC[C@H](O)C(C)(C)C5CC[C@]43C)C12	ATCC 90028	broth dilution	MIC90	25.2 µg/mL
CCCCn1[se]c2ccccc2c1=O	-	agar	MIC	1 µg/mL
CC(C)c1nc([N+]#N)c(C(=O)N2CCCC2)[nH]1	ATCC 10231	-	MIC	>200 µg/mL
O=c1c2ccccc2[se]n1C1C2CC3CC(C2)CC1C3	-	agar	MIC	5 µg/mL
Cc1ccc(Oc2nc3ccccc3cc2C2C(C#N)=C(N)OC3=C2C(=O)CC(C)(C)C3)cc1	MTCC 227	-	MIC	500 µg/mL
N#[N+]c1nc[nH]c1C(=O)N1CCCC1	ATCC 10231	-	MIC	100 µg/mL
CCCCCCCCC[C@@H](O)[C@H](C)N	MTCC 3958	-	MIC	19.8 µM
Cc1ccc2nc(Oc3ccccc3)c(C3C(C#N)=C(N)OC4=C3C(=O)CC(C)(C)C4)cc2c1	MTCC 227	-	MIC	250 µg/mL

5 of the rows above, restated:

| SMILES | strain or isolate | read by | measure | result |
|---|---|---|---|---|
| CN[C@H]1[C@@H](O[C@@H]2O[C@H](CO)[C@@H](O)[C@H](O)[C@H]2O)[C@H](O)[C@@H](O[C@H]2c3cc(C)c(C(=O)N[C@H](C)C(=O)OC)c(O)c3-c3c(cc4c(c3O)C(=O)c3cc(OC)cc(O)c3C4=O)[C@@H]2O)O[C@H]1C | A9540 | - | MIC | 25 µg/mL |
| O=C(NC1CCCCC1)n1[se]c2ccccc2c1=O | - | agar | MIC | 10 µg/mL |
| O=c1c2ccccc2[se]n1C1CCCCC1 | - | broth dilution | MIC | 2 µg/mL |
| COc1cc(O)c2c(c1)C(=O)c1c(cc3c(c1O)-c1c(cc(C)c(C(=O)NC(C)C(=O)O)c1O)[C@H](OC1OC(C)C(F)CC1OC1OCC(O)C(O)C1O)[C@H]3O)C2=O | A9540 | - | MIC | >100 µg/mL |
| CC(=O)OC1C=COC=C2CC34SSC5(CC6=COC=CC(OC(C)=O)C6N5C3=O)C(=O)N4C21 | E83 | - | EC50 | 10 µg/mL |